Measured values from patent US20050014706A1, “Method of treating tuberculosis” (priority 2003, published 2005).

Experiments:
VERO cells = experiment: Cytotoxicity against VERO cells (MTS, 72 hours); settings: selectivity index IC50:MIC
[1] = system: J774.1 macrophage cell line; experiment: Cytotoxicity against J774.1 macrophage cell line; format: cell-based, murine; settings: selectivity index IC50:MIC

CC[C@H]1OC(=O)[C@H](C)[C@@H](O[C@H]2C[C@@](C)(OC)[C@@H](O)[C@H](C)O2)[C@H](C)[C@@H](O[C@@H]2O[C@H](C)C[C@H](N(C)C)[C@H]2O)[C@](C)(OC)C[C@@H](C)C(=O)[C@H](C)[C@@H](O)[C@]1(C)O [Clarithromycin, reference compound]
Vero SI (VERO cells; Table 2a): 5.12

CC[C@H]1OC(=O)[C@@](C)(F)C(=O)[C@H](C)[C@@H](O[C@@H]2O[C@H](C)C[C@H](N(C)C)[C@H]2O)[C@](C)(OCC#Cc2cc(-c3cnc4ccccc4c3)no2)C[C@@H](C)C(=O)[C@H](C)[C@H]2NC(=O)O[C@@]21C [Compound A323348]
Vero SI (VERO cells; Table 1a): 63.92
J774 SI ([1]; Table 1a): 40.18

CC[C@H]1OC(=O)[C@H](C)[C@@H](O[C@H]2C[C@@](C)(OC)[C@@H](O)[C@H](C)O2)[C@H](C)[C@@H](O[C@@H]2O[C@H](C)C[C@H](N(C)C)[C@H]2O)[C@](C)(O)C[C@@H](C)/C(=N\OCOCc2ccccc2)[C@H](C)[C@@H](O)[C@]1(C)O [RU29558]
Vero SI (VERO cells; Table 2a): 4.02

CCCCCCCCCCN1CCCC(O/N=C2\[C@H](C)C[C@@](C)(OC)[C@H](O[C@@H]3O[C@H](C)C[C@H](N(C)C)[C@H]3O)[C@@H](C)C(=O)[C@@H](C)C(=O)O[C@H](CC)[C@@](C)(O)[C@H](O)[C@H]2C)C1 (some centres unmarked) [RU60887]
Vero SI (VERO cells; Table 2a): 220.64
J774 SI ([1]; Table 2a): 37.6

CC[C@H]1OC(=O)[C@H](C)C(=O)[C@H](C)[C@@H](O[C@@H]2O[C@H](C)C[C@H](N(C)C)[C@H]2O)[C@](C)(OC)C[C@@H](C)C(=NOC2CCCN(C/C=C/c3ccc(-c4ccccc4)cc3)C2)[C@H](C)[C@@H](O)[C@]1(C)O (some centres unmarked) [RU61804]
Vero SI (VERO cells; Table 2a): 18.24
J774 SI ([1]; Table 2a): 7.8

CC[C@H]1OC(=O)[C@H](C)[C@@H](O[C@H]2CC(C)(OC)[C@@H](O)[C@H](C)O2)[C@H](C)[C@@H](O[C@@H]2O[C@H](C)C[C@H](N(C)C)[C@H]2O)[C@](C)(OC)C[C@@H](C)C(=O)[C@H](C)[C@H]2N(CCCCc3ccnc4ccccc34)C(=O)O[C@]12C (some centres unmarked) [RU66080]
Vero SI (VERO cells; Table 1a): 18.41
J774 SI ([1]; Table 1a): 11.14

CC[C@H]1OC(=O)[C@H](C)C(OC2CC(C)(OC)[C@@H](O)[C@H](C)O2)[C@H](C)[C@@H](O[C@@H]2O[C@H](C)C[C@H](N(C)C)[C@H]2O)[C@](C)(OC)C[C@@H](C)C(=O)[C@H](C)[C@H]2N(NCCCc3ccnc4ccccc34)C(=O)O[C@]12C (some centres unmarked) [RU66252]
Vero SI (VERO cells; Table 1a): 99.72
J774 SI ([1]; Table 1a): 64.52

CC[C@H]1OC(=O)[C@H](C)[C@@H](O[C@H]2C[C@@](C)(OC)[C@@H](O)[C@H](C)O2)[C@H](C)[C@@H](O[C@@H]2O[C@H](C)C[C@H](N(C)C)[C@H]2O)[C@](C)(OC)C[C@@H](C)C(=O)[C@H](C)[C@H]2N(CCCCn3cnc(-c4cccnc4)c3)C(=O)O[C@]12C [RU69874]
Vero SI (VERO cells; Table 1a): 70.95
J774 SI ([1]; Table 1a): 154.18

CC[C@H]1OC(=O)[C@H](C)C(=O)[C@H](C)[C@@H](O[C@@H]2O[C@H](C)C[C@H](N(C)C)[C@H]2O)[C@](C)(OC)C[C@@H](C)C(=O)[C@H](C)[C@H]2N(CCCCn3cnc(-c4cccnc4)c3)C(=O)O[C@]12C [Telithromycin, reference compound]
J774 SI ([1]; Table 1a): 2.2

cethromycin [ABT773, reference compound]
Vero SI (VERO cells; Table 1a): >34
J774 SI ([1]; Table 1a): 34.1

Which two values form the index is not stated here.
